The nature of series [1]: in vitro. The conditions noted are these: human, liver microsomes. In general terms: Microsomes from liver hold many membrane-bound enzymes, among them those of drug oxidation.
Series [2] can be described thus: in vitro. To be noted: human, liver microsomes. This is another data set of the same source.

Structures are written as SMILES.

`O=C(O)Cc1ccccc1Nc1c(Cl)cccc1Cl` [DICLOFENAC]: the fraction remaining (in general, the share of the starting amount still present when the sample was taken) at 1 h in series [1] was determined as 94.8%; in series [2], 5.9%.

The values are drawn from ChEMBL document CHEMBL4342517, “Design, Synthesis, and Mechanism Study of Benzenesulfonamide-Containing Phenylalanine Derivatives as Novel HIV-1 Capsid Inhibitors with Improved Antiviral Activities” (J Med Chem, 2020).
